From publication PMC9131872, “Structural Insight into Molecular Inhibitory Mechanism of InsP6 on African Swine Fever Virus mRNA-Decapping Enzyme g5Rp” (2022)

Key:
[1] = system: g5Rp-ΔC (helical domain, residues 36 to 124), African swine fever virus (ASFV), P32092 36-124; assay: cross-linking
[2] = system: g5Rp-ΔN (Nudix domain, connecting residues 1 to 35 and 125 to 250 directly), African swine fever virus (ASFV), P32092 1-250; assay: cross-linking

Substance | stoichiometry N [1] | stoichiometry N [2]
g5Rp-ΔC (helical domain, residues 36 to 124) | 2 | –
g5Rp-ΔN (Nudix domain, connecting residues 1 to 35 and 125 to 250 directly) | – | 2
